Pooled drug test results. Numbers come from NIAID ChemDB, via PubChem.

All rows: growth or infection tests; species: HIV-1; read-out: inhibition

Inhibition is in % at the dose shown (toxicity tests: loss of growth or viability). Conditions beyond the fields shown may differ between rows.

{"SMILES": "CC1(C)CC[C@]2(C(=O)NCCCCCC(=O)NCC(=O)O)CC[C@]3(C)C(=CC[C@@H]4[C@@]5(C)C[C@@H](O)[C@H](O)C(C)(C)[C@@H]5CC[C@]43C)[C@@H]2C1", "strain": "pNL4-3", "cells": "MT-2", "method": "p24 / ELISA", "tested at": "25 µM", "result": "-22.1%"}
{"SMILES": "CC(C)(C)OC(=O)Nc1ccc(C(=O)N2CCN(C(=O)C(=O)c3c[nH]c4cccc(Cl)c34)CC2)cc1", "cells": "HeLa + HELA CD4+/CCR5", "method": "luciferase", "tested at": "10 µM", "result": "93%"}
{"SMILES": "COC(=O)c1c(C(=O)OC)c2n(c1C)C(c1ccc(OC)cc1)SC2", "strain": "IIIB", "cells": "PBL", "method": "p24 / ELISA", "tested at": "1 µM", "result": "5%"}
{"SMILES": "N=C1Sc2ccccc2C2=NCCCN12", "strain": "92UG001", "cells": "PBMC", "method": "MTS", "tested at": "1.89 µM", "result": "90%"}
{"SMILES": "O=c1oc2cc(O)cc(O)c2c(O)c1-c1coc2c1c(=O)oc1cc(O)cc(O)c12", "strain": "IIIB", "cells": "MT-4", "method": "MTT", "tested at": "10 µM", "result": "92%"}
{"SMILES": "CCc1cccc2c(C(=O)C(=O)N3CCN(C(=O)c4ccccc4)C[C@H]3C)c[nH]c12", "cells": "HeLa + HELA CD4+/CCR5", "method": "luciferase", "tested at": "10 µM", "result": ">98%"}
{"SMILES": "O=S(=O)(O)c1ccc(-c2c3nc(c(-c4ccc(S(=O)(=O)O)cc4)c4ccc([nH]4)c(-c4ccc(S(=O)(=O)O)cc4)c4nc(c(-c5ccccc5)c5ccc2[nH]5)C=C4)C=C3)cc1", "strain": "IIIB", "cells": "MAGI", "method": "β-galactosidase", "tested at": "0.5 µg/mL", "result": "50%"}
{"SMILES": "COC(=O)CCCCCCCCCCNC(=O)[C@]12CCC(C)(C)C[C@H]1C1=CC[C@@H]3[C@@]4(C)C[C@@H](O)[C@H](O)C(C)(C)[C@@H]4CC[C@@]3(C)[C@]1(C)CC2", "strain": "pNL4-3", "cells": "MT-2", "method": "p24 / ELISA", "tested at": "10 µM", "result": "33.1%"}
{"SMILES": "OC[C@@H]1CC[C@H](n2cnc3c(N4C[C@H](O)[C@@H](O)C4)ncnc32)O1", "strain": "IIIB", "cells": "CEM-SS", "method": "visual reading / cell fusion", "tested at": "10 µM", "result": "3.6%"}
{"SMILES": "CC(C)[C@H](NC(=O)CCCNC(=O)[C@]12CCC(C)(C)C[C@H]1C1=CC[C@@H]3[C@@]4(C)C[C@@H](O)[C@H](O)C(C)(C)[C@@H]4CC[C@@]3(C)[C@]1(C)CC2)C(=O)O", "strain": "pNL4-3", "cells": "MT-2", "method": "p24 / ELISA", "tested at": "25 µM", "result": "-30.2%"}
{"SMILES": "O=c1nc(N2CCCC2)ccn1[C@H]1CC(O)[C@@H](COP(=O)(O)O)O1", "strain": "IIIB", "cells": "CEM-SS", "method": "visual reading / cell fusion", "tested at": "10 µM", "result": "0%"}
{"SMILES": "C[C@H]1[C@H](O)[C@@H](C)/C=C/C=C/C=C/C=C/C=C/C=C/C=C/[C@H](O[C@@H]2O[C@H](C)[C@@H](O)[C@H](N)[C@@H]2O)C[C@@H]2O[C@](O)(C[C@@H](O)C[C@@H](O)CC[C@H](O)[C@@H](O)C[C@@H](O)CC(=O)O[C@H]1C)C[C@H](O)[C@H]2C(=O)O", "strain": "CMU06 CLADE E X4 (SI)", "cells": "PBMC", "method": "p24 / RT activity", "tested at": "3.7 µM", "result": "90%"}
{"SMILES": "COc1cccc2[nH]cc(C(=O)C(=O)N3CCN(C(=O)c4ccccn4)C[C@H]3C)c12", "cells": "HeLa + HELA CD4+/CCR5", "method": "luciferase", "tested at": "10 µM", "result": ">98%"}
{"SMILES": "CCSC(=O)N1c2ccc3ccccc3c2C=CC1C#N", "strain": "IIIB", "cells": "MOLT-3", "method": "syncytia", "tested at": "50 µM", "result": "0%"}
{"SMILES": "O=C(C(=O)N1CCN(C(=O)c2cccc(Br)c2S)CC1)c1c[nH]c2cccc(F)c12", "cells": "HeLa + HELA CD4+/CCR5", "method": "luciferase", "tested at": "10 µM", "result": "97%"}
{"SMILES": "CC(C)c1cnn2c(NCc3ccc(-c4ccccn4)cc3)nc(N[C@H](CO)C(C)O)nc12", "cells": "OM-10.1", "method": "trypan blue", "tested at": "0.05 µM", "result": "50%"}
{"SMILES": "C=C(C)OC(=O)N1C=CC(C#N)C(C(C)=O)=C1", "strain": "IIIB", "cells": "MOLT-3", "method": "syncytia", "tested at": "50 µM", "result": "0%"}
{"SMILES": "CCCCn1c(C)c(C(=O)OC)c(C(=O)OC)c1C", "strain": "IIIB", "cells": "PBL", "method": "p24 / ELISA", "tested at": "10 µM", "result": "22%"}
{"SMILES": "N#CC1C=Cc2c(ccc3ccccc23)N1C(=O)OCCCl", "strain": "IIIB", "cells": "MOLT-3", "method": "syncytia", "tested at": "50 µM", "result": "0%"}
{"SMILES": "CO[C@]1(C)OC[C@H]([C@@H]2CC(=O)C[C@H](c3ccccc3)C23C(=O)OC(C)(C)OC3=O)O[C@@]1(C)OC", "strain": "NL4-3", "cells": "SupT1", "method": "MTT", "tested at": "0.1 µM", "result": ">45%"}
{"SMILES": "Cc1cn([C@H]2CC[C@@H](CO)O2)c(=O)nc1N1C[C@H](O)[C@@H](O)C1", "strain": "IIIB", "cells": "CEM-SS", "method": "XTT / cell fusion", "tested at": "10 µM", "result": "1.1%"}
{"SMILES": "CCOC(=O)c1c(C(=O)c2ccccc2F)c(C)n(C)c1C", "strain": "IIIB", "cells": "PBL", "method": "p24 / ELISA", "tested at": "10 µM", "result": "0%"}
{"SMILES": "N#CC1C=Cc2c(ccc3ccccc23)N1C(=O)c1ccccc1", "strain": "IIIB", "cells": "MOLT-3", "method": "syncytia", "tested at": "50 µM", "result": "0%"}
{"SMILES": "CC(C)[C@@H](NC(=O)CCCCCCCCCCNC(=O)[C@]12CCC(C)(C)C[C@H]1C1=CC[C@@H]3[C@@]4(C)C[C@@H](O)[C@H](O)C(C)(C)[C@@H]4CC[C@@]3(C)[C@]1(C)CC2)C(=O)O", "strain": "pNL4-3", "cells": "MT-2", "method": "p24 / ELISA", "tested at": "25 µM", "result": "78.8%"}
{"SMILES": "O=C(O)CNP(=O)(O)OC[C@H]1O[C@@H](n2ccc(N3CCCC3)nc2=O)CC1O", "strain": "IIIB", "cells": "CEM-SS", "method": "visual reading / cell fusion", "tested at": "10 µM", "result": "13.1%"}
{"SMILES": "Cc1cn([C@H]2C[C@H](N=[N+]=[N-])[C@@H](COP(=O)(O)OCCO[C@H]3O[C@H](CO)[C@@H](O)[C@H](O)[C@@H]3O)O2)c(=O)[nH]c1=O", "strain": "LAV-Bru", "cells": "U-937", "method": "RT activity", "conditions": "14 d", "tested at": "1 µM", "result": "0%"}
{"SMILES": "N#CC1C=Cc2c(ccc3ccccc23)N1C(=O)Oc1ccc(Cl)cc1", "strain": "IIIB", "cells": "MOLT-3", "method": "syncytia", "tested at": "50 µM", "result": "0%"}
{"SMILES": "CC(C)[C@H](NC(=O)CCCCCNC(=O)[C@]12CCC(C)(C)C[C@H]1C1=CC[C@@H]3[C@@]4(C)C[C@@H](O)[C@H](O)C(C)(C)[C@@H]4CC[C@@]3(C)[C@]1(C)CC2)C(=O)O", "strain": "pNL4-3", "cells": "MT-2", "method": "p24 / ELISA", "tested at": "10 µM", "result": "16.2%"}
{"SMILES": "CC1CN(C(=O)c2ccccc2)CCN1C(=O)C(=O)c1c[nH]c2cccc(F)c12", "cells": "HeLa + HELA CD4+/CCR5", "method": "luciferase", "tested at": "10 µM", "result": ">98%"}
{"SMILES": "NCCSSCCN", "strain": "IIIB", "cells": "PBL", "method": "p24", "tested at": "200 µM", "result": "100%"}
{"SMILES": "CC1(C)CC[C@]2(C(=O)NCC(=O)O)CC[C@]3(C)C(=CC[C@@H]4[C@@]5(C)C[C@@H](O)[C@H](O)C(C)(C)[C@@H]5CC[C@]43C)[C@@H]2C1", "strain": "pNL4-3", "cells": "MT-2", "method": "p24 / ELISA", "tested at": "25 µM", "result": "-30.7%"}
{"SMILES": "C[C@@H]1CN(C(=O)c2ccccc2)CCN1C(=O)C(=O)c1c[nH]c2cc(Cl)ccc12", "cells": "HeLa + HELA CD4+/CCR5", "method": "luciferase", "tested at": "10 µM", "result": "81%"}
{"SMILES": "O=S(=O)(O)c1c2ccccc2c(-c2c3nc(c(-c4c5ccccc5c(S(=O)(=O)O)c5ccccc45)c4ccc([nH]4)c(-c4c5ccccc5c(S(=O)(=O)O)c5ccccc45)c4nc(c(-c5c6ccccc6c(S(=O)(=O)O)c6ccccc56)c5ccc2[nH]5)C=C4)C=C3)c2ccccc12", "strain": "IIIB", "cells": "MAGI", "method": "β-galactosidase", "tested at": "50 µg/mL", "result": "97%"}
{"SMILES": "COC(=O)c1cccc2c(C(=O)C(=O)N3CCN(C(=O)c4ccccc4)CC3C(C)(C)C)c[nH]c12", "cells": "HeLa + HELA CD4+/CCR5", "method": "luciferase", "tested at": "10 µM", "result": "63%"}
{"SMILES": "CCOC(=O)c1c(C)c(C(=O)OCC)n(C)c1C", "strain": "IIIB", "cells": "PBL", "method": "p24 / ELISA", "tested at": "10 µM", "result": "0%"}
{"SMILES": "CCCCCCCCCCCCCCCCOP(=O)(OC[C@H]1OC(O)[C@@H](O)[C@@H](O)[C@@H]1O)OC[C@H]1O[C@@H](n2cc(C)c(=O)[nH]c2=O)C[C@@H]1N=[N+]=[N-]", "strain": "LAV-Bru", "cells": "U-937", "method": "RT activity", "conditions": "11 d", "tested at": "0.2 µM", "result": "0%"}
{"SMILES": "O=S(=O)(O)c1ccc(-c2c3nc(c(-c4ccc(S(=O)(=O)O)cc4)c4ccc([nH]4)c(-c4ccc(S(=O)(=O)O)cc4)c4nc(c(-c5ccccc5)c5ccc2[nH]5)C=C4)C=C3)cc1", "strain": "IIIB", "cells": "MAGI", "method": "β-galactosidase", "tested at": "0.5 µg/mL", "result": "50%"}
{"SMILES": "COC(=O)c1c(C(=O)OC)c2n(c1C)Cc1ccccc1C2", "strain": "IIIB", "cells": "PBL", "method": "p24 / ELISA", "tested at": "10 µM", "result": "4%"}
{"SMILES": "COc1c(C)c2c(c(O)c1C/C=C(\\C)CCC(=O)O)C(=O)OC2", "strain": "SF162", "cells": "Macrophage + Monocytes/macrophages", "method": "RT activity", "tested at": "10 µM", "result": "95%"}
{"SMILES": "C[C@@H]1CN(C(=O)c2ccc(N)cc2)CCN1C(=O)C(=O)c1c[nH]c2c(F)ccc(F)c12", "cells": "HeLa + HELA CD4+/CCR5", "method": "luciferase", "tested at": "10 µM", "result": ">98%"}
{"SMILES": "O=S(=O)(O)c1ccc(-c2c3nc(c(-c4ccc(S(=O)(=O)O)cc4)c4ccc([n-]4)c(-c4ccc(S(=O)(=O)O)cc4)c4nc(c(-c5ccc(S(=O)(=O)O)cc5)c5ccc2[n-]5)C=C4)C=C3)cc1.[Gd+3]", "strain": "IIIB", "cells": "MAGI", "method": "β-galactosidase", "tested at": "50 µg/mL", "result": "69%"}